{"source": "PubChem BioAssay AID1259414 (Drosophila RNAi Screening Center, 2018)", "purpose": "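Host factors increasing or decreasing Wolbachia levels in cultured fly cells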 (primary screen)", "cells": "Drosophila JW18 cells infected with Wolbachia", "knock-down reagent": "long dsRNA against Drosophila genes, 0.25 µg dsRNA per well of a 384-well plate", "duration": "5 days", "conditions": "cells persistently infected with Wolbachia before knock-down; no added drug", "measurement": "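Imaged fluorescence in situ signal for Wolbachia 23S rRNA per DAPI-counted host cell, given as a robust z-score within each plate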", "direction": "Wolbachia per cell robust z: higher = more Wolbachia per host cell than the plate typical", "hit rule": "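Hit when robust z is 1.5 or more, or -1.5 or less, in at least two of three replicates; excludes dsRNAs with several or no targets, genes not expressed in JW18 and well A1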", "note": "The screen tested about 24,000 reagents; shown is an unselected part of those with a known target gene and a result. In the full data, about 1,210 (5%) were called active. 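Inactive calls also include excluded dsRNAs with several or no targets, genes unexpressed in JW18, and well A1, regardless of score.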"}
{"gene": "CG17294 (GeneID 34155)", "amplicon": "DRSC02596", "Wolbachia per cell robust z, rep 1": 0.218, "Wolbachia per cell robust z, rep 2": 0.14, "Wolbachia per cell robust z, rep 3": -0.404, "call": "inactive"}
{"gene": "Mvl (GeneID 42490)", "amplicon": "DRSC16752", "Wolbachia per cell robust z, rep 1": -5.74, "Wolbachia per cell robust z, rep 2": -8.91, "Wolbachia per cell robust z, rep 3": -3.19, "call": "active"}
{"gene": "l(2)efl (GeneID 37744)", "amplicon": "DRSC04698", "Wolbachia per cell robust z, rep 1": 0.231, "Wolbachia per cell robust z, rep 2": -7.85, "Wolbachia per cell robust z, rep 3": -0.97, "call": "inactive"}
{"gene": "Blos2 (GeneID 39234)", "amplicon": "DRSC10147", "Wolbachia per cell robust z, rep 1": 1.34, "Wolbachia per cell robust z, rep 2": 0.664, "Wolbachia per cell robust z, rep 3": -0.224, "call": "inactive"}
{"gene": "Blos2 (GeneID 39234)", "amplicon": "DRSC25642", "Wolbachia per cell robust z, rep 1": 0.29, "Wolbachia per cell robust z, rep 2": -0.721, "Wolbachia per cell robust z, rep 3": 0.328, "call": "inactive"}
{"gene": "CG14570 (GeneID 40416)", "amplicon": "DRSC11731", "Wolbachia per cell robust z, rep 1": -1.18, "Wolbachia per cell robust z, rep 2": 0.0225, "Wolbachia per cell robust z, rep 3": -0.716, "call": "inactive"}
{"gene": "CG14570 (GeneID 40416)", "amplicon": "DRSC24676", "Wolbachia per cell robust z, rep 1": 0.879, "Wolbachia per cell robust z, rep 2": 0.0482, "Wolbachia per cell robust z, rep 3": -0.575, "call": "inactive"}
{"gene": "Cul1 (GeneID 35742)", "amplicon": "DRSC07645", "Wolbachia per cell robust z, rep 1": 0.363, "Wolbachia per cell robust z, rep 2": -2.83, "Wolbachia per cell robust z, rep 3": 3.67, "call": "inactive"}
{"gene": "Cul1 (GeneID 35742)", "amplicon": "DRSC26395", "Wolbachia per cell robust z, rep 1": 1.64, "Wolbachia per cell robust z, rep 2": -0.983, "Wolbachia per cell robust z, rep 3": 1.94, "call": "active"}

Hits, of those listed so far:
{"gene": "Mvl (GeneID 42490)", "amplicon": "DRSC16752", "Wolbachia per cell robust z, rep 1": -5.74, "Wolbachia per cell robust z, rep 2": -8.91, "Wolbachia per cell robust z, rep 3": -3.19, "call": "active"}
{"gene": "Cul1 (GeneID 35742)", "amplicon": "DRSC26395", "Wolbachia per cell robust z, rep 1": 1.64, "Wolbachia per cell robust z, rep 2": -0.983, "Wolbachia per cell robust z, rep 3": 1.94, "call": "active"}

Next records:
{"gene": "Sting (GeneID 36016)", "amplicon": "DRSC06615", "Wolbachia per cell robust z, rep 1": 0.878, "Wolbachia per cell robust z, rep 2": 0.0416, "Wolbachia per cell robust z, rep 3": 0.74, "call": "inactive"}
{"gene": "Sting (GeneID 36016)", "amplicon": "DRSC29477", "Wolbachia per cell robust z, rep 1": 0.787, "Wolbachia per cell robust z, rep 2": -0.022, "Wolbachia per cell robust z, rep 3": 1.14, "call": "inactive"}
{"gene": "Spps (GeneID 42882)", "amplicon": "DRSC23206", "Wolbachia per cell robust z, rep 1": -1.61, "Wolbachia per cell robust z, rep 2": 0.291, "Wolbachia per cell robust z, rep 3": 0.339, "call": "inactive"}
{"gene": "CG32572 (GeneID 32657)", "amplicon": "DRSC19525", "Wolbachia per cell robust z, rep 1": -0.222, "Wolbachia per cell robust z, rep 2": 0.175, "Wolbachia per cell robust z, rep 3": -0.183, "call": "inactive"}
{"gene": "CG32572 (GeneID 32657)", "amplicon": "DRSC19526", "Wolbachia per cell robust z, rep 1": -0.0543, "Wolbachia per cell robust z, rep 2": -0.0664, "Wolbachia per cell robust z, rep 3": 0.00369, "call": "inactive"}
{"gene": "CG32572 (GeneID 32657)", "amplicon": "DRSC30085", "Wolbachia per cell robust z, rep 1": 0.994, "Wolbachia per cell robust z, rep 2": 1.64, "Wolbachia per cell robust z, rep 3": 1.31, "call": "inactive"}
{"gene": "CG15336 (GeneID 31742)", "amplicon": "DRSC18019", "Wolbachia per cell robust z, rep 1": 0.0906, "Wolbachia per cell robust z, rep 2": -0.903, "Wolbachia per cell robust z, rep 3": 0.585, "call": "inactive"}
{"gene": "CG15336 (GeneID 31742)", "amplicon": "DRSC28008", "Wolbachia per cell robust z, rep 1": 0.575, "Wolbachia per cell robust z, rep 2": -0.456, "Wolbachia per cell robust z, rep 3": -1.73, "call": "inactive"}
{"gene": "RanGAP (GeneID 35223)", "amplicon": "DRSC22003", "Wolbachia per cell robust z, rep 1": -0.673, "Wolbachia per cell robust z, rep 2": -0.671, "Wolbachia per cell robust z, rep 3": -1.52, "call": "inactive"}
{"gene": "RanGAP (GeneID 35223)", "amplicon": "DRSC29400", "Wolbachia per cell robust z, rep 1": 0.669, "Wolbachia per cell robust z, rep 2": -0.0546, "Wolbachia per cell robust z, rep 3": -0.329, "call": "inactive"}
{"gene": "CG5265 (GeneID 42074)", "amplicon": "DRSC15756", "Wolbachia per cell robust z, rep 1": -0.207, "Wolbachia per cell robust z, rep 2": -1.38, "Wolbachia per cell robust z, rep 3": -0.993, "call": "inactive"}
{"gene": "TTLL1B (GeneID 326203)", "amplicon": "DRSC08594", "Wolbachia per cell robust z, rep 1": -0.427, "Wolbachia per cell robust z, rep 2": 0.076, "Wolbachia per cell robust z, rep 3": -0.0484, "call": "inactive"}
{"gene": "Wnt5 (GeneID 32838)", "amplicon": "DRSC20300", "Wolbachia per cell robust z, rep 1": 0.353, "Wolbachia per cell robust z, rep 2": -0.842, "Wolbachia per cell robust z, rep 3": -0.194, "call": "inactive"}
{"gene": "Wnt5 (GeneID 32838)", "amplicon": "DRSC28853", "Wolbachia per cell robust z, rep 1": -1.34, "Wolbachia per cell robust z, rep 2": -4.2, "Wolbachia per cell robust z, rep 3": -0.204, "call": "inactive"}
{"gene": "CG13506 (GeneID 37556)", "amplicon": "DRSC04150", "Wolbachia per cell robust z, rep 1": -0.169, "Wolbachia per cell robust z, rep 2": -5.89, "Wolbachia per cell robust z, rep 3": 1.14, "call": "inactive"}
